Legend:
Experiment in all cases: ACE2 competition, spike on 293T cells, antibody 4 µg/mL
[1] = target: T1, full-length spike protein of SARS-CoV-2 α strain (SARS-CoV-2 (α strain))
T1 construct: whole, on cells; Expressed in 293T cells

[2] = target: T2, full-length spike protein of SARS-CoV-2 γ strain (SARS-CoV-2 (γ strain))
T2 construct: whole, on cells; Expressed in 293T cells

[3] = target: T3, full-length spike protein of SARS-CoV-2 β strain (SARS-CoV-2 (β strain))
T3 construct: whole, on cells; Expressed in 293T cells

B1: Ab315 (antibody, V domains shown)
VH: EVQLLESGGGLIQPGGSLRLSCAASGLIVSSNYMSWVRQAPGKGLEWVSVIYSGGSTYYADSVKGRFISSRDNSKNTLYLQMNSLRAEDTAVYYCARGELDLPYGMDVWGQGTTVTVSS
VL: QAVVTQPPSVSAAPGQKVTISCSGSSSNIGNNYVSWYQQLPGTAPKLLICDTNKRPSGIPDRFSGSKSGTSATLGITGLQTGDEADYYCGTWDRSLSAGVFGGGTKLTVL
**Q.** What does the source list for B1?
**A.** binding amount (%) of ACE2 protein [1]: 4.5%; binding amount (%) of ACE2 protein [2]: 99.3%; binding amount (%) of ACE2 protein [3]: 88.6%

B2: Ab864 (antibody, V domains shown)
VH: EVQLVESGGGLVQPGRSLRLSCAASGFTFDDYAMHWVRQVPGKGLEWVSGISWNKGNIDYADSVKGRFTISRDNAKNSLYLQMNSLRPEDTGLYYCAKDCHYDSPGYFPNCLHSWGQGTLVTVSS
VL: EIVMTQSPSSLSASVGDRVTITCRASQGINTYLAWYQQKPGKAPKLLIYTASTLQSGVPSRFSGSGSGTDFTLTISSLQPEDFATYYCQQVHSYPLTFGGGTKVEIK
**Q.** Which results are given for B2?
**A.** binding amount (%) of ACE2 protein [1]: 0.4%; binding amount (%) of ACE2 protein [2]: 2.4%; binding amount (%) of ACE2 protein [3]: 1.3%

Source: US20230348573A1 (KEIO UNIVERSITY, published 2023)
